The text below walks through data of PMC4763181.

This data set concerns C[S+](CC[C@H](N)C(=O)O)C[C@H]1O[C@@H](n2cnc3c(N)ncnc32)[C@H](O)[C@@H]1O. In words: purified protein. The following applies: HEK nucleosomes as co-substrate, 25 nM enzyme, 50 mM Tris pH 8.8, 5 mM MgCl2, 4 mM DTT, room temperature, 1 h, labelled compound (3H-AdoMet diluted with unlabelled AdoMet).

Usually Km stands for the concentration of substrate that gives half-maximal velocity. As a reminder, the kcat is the maximal rate divided by the concentration of active sites. As to “PfSET7FL (Plasmodium falciparum 3D7; S122A/T784A)”, the Km was found to be 48 ± 7 µM and the kcat lay within 0.0222 to 0.0417 s⁻¹.
